## Genome-wide point mutation profile of HIV-1: Gag

Protein: Gag of HIV-1 NL4-3, numbered from its first residue. Gag is numbered as the whole polyprotein.
"Other frame" gives the effect on an overlapping gene as the source lists it; other overlaps (genes, RNA elements) are not shown.

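Seven fragments of pNL4-3 were mutated by error-prone PCR, and each virus pool was passaged in CEM T cells. The RC index is the frequency of a change after passage round 2 divided by its frequency in the plasmid library.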

A higher RC index is a better tolerated change; approximate classes are lethal up to 0.1, attenuated to 0.2, tolerated above. Each entry names the wild-type residue, its position and the residue put in its place. Input reads are the counts in the plasmid library. Base changes are numbered along pNL4-3. Since each clone held several changes (about five per kb), neutral changes can read low. The authors read an index above 1 as above wild type (1.9% of all changes in the genome).

* Q69E (base C994G, region MA, input reads 30) = 0.107
* E291K (base G1660A, region CA, input reads 262) = 0.449
* M200K (base T1388A, region CA, input reads 769) = 0.0408
* R294I (base G1670T, region CA, input reads 119) = 0.114
* S368T (base G1892C, region p2, input reads 45) = 0.0620
* A224E (base C1460A, region CA, input reads 314) = 0.0821
* A431T (base G2080A, region NC p7, input reads 664) = 0.220
* K103M (base A1097T, region MA, input reads 552) = 0.0349
* D14E (base T831A, region MA, input reads 203) = 0.0476
* R444M (base G2120T, region p1 / p6*, other frame p6* K4N, input reads 270) = 0.126
* M200R (base T1388G, region CA, input reads 230) = 0.0597
* S241T (base G1511C, region CA, input reads 184) = 0.0701
* L363M (base T1876A, region CA, input reads 492) = 0.0198
* Y86N (base T1045A, region MA, input reads 422) = 0.0229
* G357S (base G1858A, region CA, input reads 395) = 0.561
* F44I (base T919A, region MA, input reads 250) = 0.0324
* P166Q (base C1286A, region CA, input reads 91) = 0.429
* N131K (base T1182A, region MA, input reads 164) = 0.0134
* L21I (base T850A, region MA, input reads 449) = 0.0353
* L152F (base A1245T, region CA, input reads 202) = 0.0761
* Q227H (base G1470T, region CA, input reads 260) = 0.0744
* I134L (base A1189T, region CA, input reads 364) = 0.0241
* I376K (base T1916A, region p2, input reads 364) = 0.0130
* I273M (base A1608G, region CA, input reads 262) = 0.101
* Q246H (base A1527C, region CA, input reads 402) = 0.0324
* E55K (base G952A, region MA, input reads 157) = 0.297
* Q199H (base A1386T, region CA, input reads 455) = 0.152
* C350Y (base G1838A, region CA, input reads 146) = 0.0561
* L175S (base T1313C, region CA, input reads 240) = 0.148
* E365V (base A1883T, region p2, input reads 433) = 0.0225
* Y132N (base T1183A, region MA, input reads 102) = 0.0646
* T303I (base C1697T, region CA, input reads 139) = 0.195
* K98T (base A1082C, region MA, input reads 143) = 0.0899
* R214S (base A1431T, region CA, input reads 258) = 0.0583
* I147K (base T1229A, region CA, input reads 277) = 0.0476
* C330R (base T1777C, region CA, input reads 270) = 0.0754
* I19N (base T845A, region MA, input reads 513) = 0.0463
* N109I (base A1115T, region MA, input reads 195) = 0.0330
* K113N (base A1128T, region MA, input reads 265) = 0.0401
* N80I (base A1028T, region MA, input reads 392) = 0.0246

A selection of 2 entries from above:

| substitution | base | region | other frame | input reads | replication capacity index |
|---|---|---|---|---|---|
| Q246H | A1527C | CA | none | 402 | 0.0324 |
| N109I | A1115T | MA | none | 195 | 0.0330 |

Source: Al-Mawsawi et al. 2014 (doi:10.1186/s12977-014-0124-6), supplementary data.